According to article PMC10479830, “Nucleoside analogs NM107 and AT-527 are antiviral against rubella virus” (PNAS Nexus, 2023):

system: rubella RA27/3 virus; format: cell-based; details: A549 cells
Source text: We developed a high-throughput, high-content, cell-based assay to monitor rubella virus infection of the human respiratory cell line A549, as the respiratory tract is infected in humans. […] We infected A549 cells with the rubella virus vaccine strain (RA27/3) and monitored infection using an antibody to the viral glycoprotein E1 (Fig. 1A) ([13]). […] To evaluate the utility of nanchangmycin as a positive control for our assay development, we performed a dose–response assay for nanchangmycin using automated fluorescent microscopy to quantify the cell number as a surrogate for cell viability and percent infection (Fig. 1A).
A549 cells were plated in 384 well plates at 3,000 cells/well, HBMEC were plated at 7,000 cells/well, or Jeg-3 cells were plated at 3,000 cells/well in 20 μL growth media. The next day, 50 nL of drugs were added to assay wells, yielding a final concentration of 1 µM. The positive control nanchangmycin (n = 32) and the negative control DMSO (n = 32) were spotted on each assay plate. […] HBMECs were spin-infected by centrifuging at 1,250×g for 1 h at 25°C. Cells were fixed at 48 h post infection (hpi) in 4% formaldehyde/phosphate-buffered saline (PBS) for 15 min at room temperature and then washed twice with PBS. Cells were blocked with blocking buffer [2% bovine serum albumin in PBS with 0.1% Triton X-100 (PBST)]) for 1 h and incubated with primary antibody (mouse antirubella E1, CDC, 1 μg/mL) overnight at 4°C. […] Cells were washed three times with PBST and imaged using ImageXpress Micro (Molecular Devices). Cells were imaged with a 10× objective capturing four sites per well. The total number of cells and the percentage of infected cells were measured using the MetaXpress 5.3.3 cell scoring module. The aggregated percent infection of the DMSO and 2 µM nanchangmycin control wells on each assay plate were used to calculate Z′-factors. Sample well infection was normalized to aggregated DMSO plate control wells and expressed as percentage of control (POC = [%Infection sample/Average %Infection DMSO] × 100) and Z-score (Z = [%Infection sample − Average %Infection DMSO]/Standard Deviation %Infection DMSO) in Spotfire (PerkinElmer). Candidate hits were selected as compounds with POC <40% and viability >60%, compared with vehicle control.
Drugs were purchased as powders from Selleckchem, MedchemExpress, and MedKoo and suspended in DMSO. Drugs were arrayed in 8-pt dose–response in 384 well plates. Infections were performed using the screening conditions. DMSO (n = 32) and 2 µM nanchangmycin (n = 16) were included on each validation plate as controls for normalization. Infection at each drug concentration was normalized to aggregated DMSO plate control wells and expressed as POC (POC = %Infection sample/Average %Infection DMSO cont). A nonlinear regression curve fit analysis (GraphPad Prism 8) was performed on POC infection and cell viability using log10 transformed concentration values to calculate IC50 values for infection and CC50 values for cell viability. SI was calculated as a ratio of the drug's CC50 and IC50 values (SI = CC50/IC50).

Q: How did the “selectivity index (SI = CC50/IC50)” value turn out when `Nc1nc(-c2nn(Cc3ccccc3F)c3ncccc23)ncc1C1CC1` [BAY-41-2272] was run?
A: 7

Q: Which “selectivity index (SI = CC50/IC50)” value does the source give for `Cn1cc(C2=C(c3cccc(N)c3)C(=O)NC2=O)c2ccccc21` [CP21R7] here?
A: 1

Q: For `Cc1ccc(S(=O)(=O)Cc2nc(-c3ccc(C(=O)NCc4cccnc4)cc3)oc2C)cc1` [STF-118804], which “selectivity index (SI = CC50/IC50)” value is on record?
A: > 500

Q: How did the “selectivity index (SI = CC50/IC50)” value turn out when `CO[C@H]1CC[C@@H](O[C@H]2C[C@H]([C@]3(C)CC[C@]4(C[C@H](O)[C@@H](C)[C@@H]([C@@H](C)/C=C(\C)C(=O)[C@H](C)C[C@H](C)C(=O)O)O4)O3)O[C@]3(O[C@@H]([C@H]4O[C@@](O)(CO)[C@H](C)C[C@@H]4C)C[C@@H]3C)[C@@H]2C)O[C@@H]1C` [nanchangmycin] was run?
A: 100

Q: For PF-429242, which “selectivity index (SI = CC50/IC50)” value is on record?
A: 298
